Results of unrelated studies side by side (data: NIAID ChemDB).

Shared fields: toxicity to cultured cells; cells: H9; measure: CC50

Rows are shuffled and stem from different studies. An empty or dashed field is not shown. CCn is the concentration with n% toxicity to the cells.

SMILES,method,result
CC(C)[C@H](NC(=O)OCc1ccccc1)C(=O)N[C@@H](Cc1ccccc1)[C@H](O)[C@H](Cc1ccccc1)NC(=O)[C@@H](NC(=O)OCc1cccnc1)C(C)C,trypan blue,20 µM
Nc1nc2c(ncn2[C@@H]2O[C@H](COP(=O)(O)O)[C@@H](O)[C@H]2O)c(=O)o1,MTT,>500 µg/mL
COc1cc2cc[n+](C)c(Cc3ccc4c(c3)OCO4)c2cc1OC,-,22.4 µg/mL
O=c1c(O)c(-c2ccc(O)c(O)c2)oc2cc(O)cc(O)c12,-,<4 µg/mL
CCOc1ccc(Cc2nccc3cc(OCC)c(OCC)cc23)cc1OCC,-,8.48 µg/mL
COC(C)(C)C(O)COc1c2ccoc2cc2oc(=O)ccc12,-,>100 µg/mL
COc1cc2c(c(OC)c1OC)-c1ccc(OC)c(=O)cc1[C@@H](NC(=O)/C=C/c1ccc(O)c(O)c1)CC2,-,0.29 µM
O=C(O[C@@H]1Cc2c(O)cc(O)cc2O[C@@H]1c1cc(O)c(O)c(O)c1)c1cc(O)c(O)c(O)c1,-,8 µg/mL
[N-]=[N+]=N[C@H]1C[C@H](n2cc(I)c(=O)[nH]c2=O)O[C@@H]1CO,-,197 µM
O=c1ccn([C@H]2C[C@H](F)[C@@H](CO)O2)c(=O)[nH]1,-,>2500 µM
O=c1[nH]cnc2c1ncn2[C@H]1CC[C@@H](CO)O1,-,>500 µg/mL
COc1cc2c(c(OC)c1O)-c1ccc(O)c(=O)cc1[C@@H](NC(C)=O)CC2,-,0.27 µM
C[C@@H]1[C@H](O)[C@@H](C)/C=C/C=C/CC/C=C/C=C/C=C/C=C/C(O[C@H]2O[C@H](C)[C@@H](O)[C@H](N)[C@@H]2O)CC2O[C@](O)(CC(O)C(O)CCC(O)CC(O)CC(O)CC(=O)O[C@H]1C)CC(O)C2C(=O)O,-,>10 µg/mL
CC(C)[C@H](NC(=O)CCc1ccccn1)C(=O)N[C@@H](Cc1ccccc1)[C@@H](O)[C@H](O)[C@H](Cc1ccccc1)NC(=O)[C@@H](NC(=O)CCc1ccccn1)C(C)C,trypan blue,>100 µM
CCOc1ccc(Cc2c3cc(OCC)c(OCC)cc3cc(C)[n+]2C)cc1OCC,-,13 µg/mL
CCc1cc(NCc2nc3c(Cl)ccc(Cl)c3o2)c(=O)[nH]c1C,-,>60 µM
COc1ccc(Cc2cc3cc(OC)c(OC)cc3c[nH+]2)cc1OC,-,10.1 µg/mL
CCCC1(C)Oc2ccc3c(C)cc(=O)oc3c2[C@@H](OC(=O)C23CCC(C)(C(=O)O2)C3(C)C)[C@H]1OC(=O)C12CCC(C)(C(=O)O1)C2(C)C,-,>37.6 µM
CC(C)(C)NC(=O)[C@H]1CC[C@H]2[C@@H]3CCC4=CC(=O)CC[C@]4(C)[C@H]3CC[C@]12C,-,240 µM
COc1cc([C@@H]2c3cc4c(cc3[C@@H](O[C@@H]3O[C@@H]5CO[C@@H](C)O[C@H]5[C@H](O)[C@H]3O)[C@H]3COC(=O)[C@H]23)OCO4)cc(OC)c1O,-,1.27 µg/mL
COc1cc(C(=O)N[C@H]2CCc3cc(OC)c(OC)c(OC)c3-c3ccc(OC)c(=O)cc32)cc(OC)c1OC,-,0.04 µM
CC[C@H](C)[C@@H](C(=O)O)n1sc2ccccc2c1=O,-,>100 µM
CCc1c2cc(O)c(O)cc2cc[n+]1C,-,2.07 µg/mL
Nc1nc2c(ncn2[C@H]2CC[C@@H](CO)C2)c(=O)o1,MTT,>500 µg/mL
CC(C)[C@H](NC(=O)OCc1ccccc1)C(=O)N[C@@H](Cc1ccccc1)[C@H](O)[C@H](Cc1ccccc1)NC(=O)[C@@H](NC(=O)N1CCN(C)CC1)C(C)C,trypan blue,54 µM
COc1cc([N+](=O)[O-])ccc1N[C@@H]1c2cc3c(cc2[C@@H](c2cc(OC)c(O)c(OC)c2)[C@H]2C(=O)OC[C@@H]21)OCO3,-,0.23 µg/mL
O=C(O)C(=O)CC(=O)c1cc(OCc2ccccc2)cc(OCc2ccccc2)c1,XTT,90 µM
COc1cc2c(c(OC)c1OC)-c1ccc(=O)c(N(C)C)cc1[C@@H](N)CC2,-,>2.7 µM
COc1cc2ccnc(Cc3ccc4c(c3)OCO4)c2cc1OC,-,21.6 µg/mL
Nc1ccn([C@@H]2O[C@H](CO)C=C2F)c(=O)n1,-,6 µg/mL
Nc1nc2c(ncn2[C@H]2C=C[C@@H](CO)O2)c(=O)o1,-,>500 µg/mL
C[C@@H]1CC[C@]2(C(=O)O)CC[C@]3(C)C(=CC[C@@H]4[C@@]5(C)C[C@@H](O)[C@H](O)C(C)(C)[C@@H]5CC[C@]43C)[C@@H]2[C@]1(C)O,-,15 µg/mL
Nc1nc2c(ncn2[C@H]2CC[C@@H](CO)O2)c(=O)o1,MTT,>500 µg/mL
CC1(C)CC[C@]2(C(=O)O)CC[C@]3(CO)C(=CCC4[C@@]5(C)CC[C@H](O)C(C)(C)C5CC[C@]43C)C2C1,-,25 µg/mL
O=C(N[C@H]1CCc2cc(O)c(O)c(O)c2-c2ccc(O)c(=O)cc21)C(F)(F)F,-,23 µM
CCOC(=O)c1ccc(N[C@@H]2c3cc(OC)c(OC)cc3[C@@H](c3cc(OC)c(O)c(OC)c3)[C@H]3C(=O)OC[C@@H]32)cc1,-,0.12 µg/mL
O=C(O[C@@H]1Cc2c(O)cc(O)cc2O[C@@H]1c1cc(O)c(O)c2c(=O)c(O)cc([C@H]3Oc4cc(O)cc(O)c4C[C@H]3O)cc12)c1cc(O)c(O)c(O)c1,-,48 µg/mL
Cc1cc(=O)oc2c3c(ccc12)OC(C)(C)[C@H](OC(=O)C12CCC(C)(C(=O)O1)C2(C)C)[C@@H]3OC(=O)C12CCC(C)(C(=O)O1)C2(C)C,-,>38.9 µM
COc1cc([C@@H]2c3cc4c(cc3[C@@H](Nc3ccc([N+](=O)[O-])cc3)[C@H]3COC(=O)[C@H]23)OCO4)cc(OC)c1O,-,0.132 µg/mL
CC1(C)OC1COc1c2ccoc2cc2oc(=O)ccc12,-,23.4 µg/mL
NC[C@H]1O[C@@H](n2cnc3c(N)ncnc32)[C@H](O)[C@@H]1F,-,100 µg/mL
CC(C)[C@H](NC(=O)OCc1ccccc1)C(=O)N[C@@H](Cc1ccccc1)[C@H](O)[C@H](O)[C@H](Cc1ccccc1)NC(=O)[C@@H](NC(=O)OCc1ccccc1)C(C)C,trypan blue,60 µM
Cc1cn([C@H]2C[C@H](N=[N+]=[N-])[C@@H](CO)O2)c(=O)[nH]c1=O,-,4 µM
CC1(C)CC[C@]2(C(=O)O)CC[C@]3(C)C(=CC[C@@H]4[C@@]5(C)CC[C@H](OC(=O)CC(C)(C)C(=O)O)C(C)(C)[C@@H]5CC[C@]43C)[C@@H]2C1,-,11.2 µg/mL
COc1c(O)c(I)c2c(c1OC)-c1c(c(I)c(O)c(OC)c1OC)C[C@H](C)[C@H](C)C2,-,22.5 µM
C[C@@H]1CC[C@]2(C(=O)O)CC[C@]3(C)C(=CC[C@@H]4[C@@]5(C)CC[C@H](O)C(C)(C)[C@@H]5CC[C@]43C)[C@@H]2[C@]1(C)O,-,23.3 µg/mL
Nc1nc2c(ncn2[C@@H]2C[C@H](CO)[C@@H](O)[C@H]2O)c(=O)o1,-,>500 µg/mL
Cc1cn([C@H]2C[C@H](N=[N+]=[N-])[C@@H](CO)O2)c(=O)[nH]c1=O,-,10 µM
O=C(O[C@@H]1Cc2c(O)cc(O)cc2O[C@@H]1c1cc(O)c(O)c2c1C1C([C@H]3Oc4cc(O)cc(O)c4C[C@H]3O)=CC(=O)C1(O)O2)c1cc(O)c(O)c(O)c1,-,48 µg/mL
Nc1nc2c(ncn2[C@@H]2C[C@H](COP(=O)(O)O)[C@@H](O)[C@H]2O)c(=O)o1,-,>500 µg/mL
CC(C)(O)[C@H](O)COc1c2occc2cc2ccc(=O)oc12,-,>100 µg/mL
O=c1cc(-c2ccc(O)cc2)oc2cc(O[C@@H]3O[C@H](CO)[C@@H](O)[C@H](O)[C@H]3O)cc(O)c12,-,>100 µg/mL
C[C@H]1[C@H](O)[C@@H](C)/C=C/C=C/C=C/C=C/C=C/C=C/C=C/[C@H](O[C@@H]2O[C@H](C)[C@@H](O)[C@H](N)[C@@H]2O)C[C@@H]2O[C@](O)(C[C@@H](O)C[C@@H](O)CC[C@H](O)[C@@H](O)C[C@@H](O)CC(=O)O[C@H]1C)C[C@H](O)[C@H]2C(=O)O,-,>10 µg/mL
CCCCCCCCCCCCCCCC(=O)Nc1ncnc2c1ncn2[C@@H]1O[C@H](CO)[C@@H](F)[C@H]1O,-,33 µg/mL
Cc1cc(=O)oc2c3c(ccc12)OC[C@H](OC(=O)C12CCC(C)(C(=O)O1)C2(C)C)[C@@H]3OC(=O)C12CCC(C)(C(=O)O1)C2(C)C,-,>41.1 µM
COc1ccc2ccc(=O)oc2c1CC=C(C)C,-,11.7 µg/mL
Cc1cn([C@H]2C[C@H](N=[N+]=[N-])[C@@H](CO)O2)c(=O)[nH]c1=O,-,1875 µM
COc1cc(/C=C/C(=O)N[C@H]2CCc3cc(OC)c(OC)c(OC)c3-c3ccc(OC)c(=O)cc32)cc(OC)c1O,-,0.18 µM
C[C@@H]1CC[C@]2(C(=O)O)CC[C@]3(C)C(=CCC4[C@@]5(C)CC(=O)[C@H](O)C(C)(C)C5CC[C@]43C)C2[C@]1(C)O,-,40 µg/mL
Nc1ncnc2c1ncn2CCOCP(=O)(O)O,-,40 µM
O=C(O)c1cc(O)cc(O)c1N=Nc1ccc(/C=C/c2ccc(N=Nc3c(O)cc(O)cc3C(=O)O)cc2S(=O)(=O)O)c(S(=O)(=O)O)c1,-,135 µg/mL
O=C(Oc1c(O)cc([C@H]2Oc3cc(O)cc(O)c3C[C@H]2OC(=O)c2cc(O)c(O)c(O)c2)cc1O)c1cc(O)c(O)c(O)c1,-,40 µg/mL
COc1cc2c(c(OC)c1O)-c1ccc(OC)c(=O)cc1[C@@H](NC(C)=O)CC2,-,0.26 µM
COc1ccc(Cc2nccc3c(OC)c(OC)ccc23)cc1OC,-,10.2 µg/mL
CC(C)[C@H](NC(=O)OCc1ccccc1)C(=O)N[C@@H](Cc1ccccc1)[C@H](O)[C@H](Cc1ccccc1)NC(=O)[C@@H](NC(=O)OCc1ccccn1)C(C)C,trypan blue,25 µM
CCCOc1cc2cc[n+](C)c(CC)c2cc1OCCC,-,5.4 µg/mL
COc1cc(C(=O)O[C@@H]2Cc3c(O)cc(O)cc3O[C@@H]2c2ccc(O)c(O)c2)cc(O)c1O,-,50 µg/mL

The last 9 rows once more:

SMILES	method	result
C[C@@H]1CC[C@]2(C(=O)O)CC[C@]3(C)C(=CCC4[C@@]5(C)CC(=O)[C@H](O)C(C)(C)C5CC[C@]43C)C2[C@]1(C)O	-	40 µg/mL
Nc1ncnc2c1ncn2CCOCP(=O)(O)O	-	40 µM
O=C(O)c1cc(O)cc(O)c1N=Nc1ccc(/C=C/c2ccc(N=Nc3c(O)cc(O)cc3C(=O)O)cc2S(=O)(=O)O)c(S(=O)(=O)O)c1	-	135 µg/mL
O=C(Oc1c(O)cc([C@H]2Oc3cc(O)cc(O)c3C[C@H]2OC(=O)c2cc(O)c(O)c(O)c2)cc1O)c1cc(O)c(O)c(O)c1	-	40 µg/mL
COc1cc2c(c(OC)c1O)-c1ccc(OC)c(=O)cc1[C@@H](NC(C)=O)CC2	-	0.26 µM
COc1ccc(Cc2nccc3c(OC)c(OC)ccc23)cc1OC	-	10.2 µg/mL
CC(C)[C@H](NC(=O)OCc1ccccc1)C(=O)N[C@@H](Cc1ccccc1)[C@H](O)[C@H](Cc1ccccc1)NC(=O)[C@@H](NC(=O)OCc1ccccn1)C(C)C	trypan blue	25 µM
CCCOc1cc2cc[n+](C)c(CC)c2cc1OCCC	-	5.4 µg/mL
COc1cc(C(=O)O[C@@H]2Cc3c(O)cc(O)cc3O[C@@H]2c2ccc(O)c(O)c2)cc(O)c1O	-	50 µg/mL